From patent US9346854B2, “Anti-inflammatory peptides and use thereof” (Yeda Research and Development Co. Ltd., priority 2012, dated 2016)
No end group written: not given here.

Assay: Circular dichroism spectroscopy with and without LPS
Format: physicochemical, E. coli

KKALALALALALAKK-NH2 [K2(AL)5AK2, KKALALALALALAKK]
secondary structure (CD) (in solution, without LPS): random coil | secondary structure (CD) (in the presence of LPS): β-sheet

KALALALKALALKALALALK-NH2 [K(AL)3K(AL)2K(AL)3K]
secondary structure (CD) (in the presence of LPS): α-helical | CD ratio 222/208 (with LPS 50 μM, peptide 50 μM): 1.00

KKAVAVAVAVAVAVAVAVKK-NH2 [K2(AV)8K2]
secondary structure (CD) (in the presence of LPS): β-sheet
